Data published in PubChem BioAssay AID504332 (National Center for Advancing Translational Sciences (NCATS), 2011).
This is a selection; strong and weak results do not stand in their true shares. Records with an inconclusive call do not appear. Activity calls are given as the source filed them. Calls come from the whole dose curve; as a rule, active = well fitted inhibition curve with a large enough effect; inconclusive = small, poorly fitted or top-dose-only effect; inactive = no such curve, though single readings can be large or run the other way.
Note: nearly all actives have a fitted effect of over 75% in size.
Potency is the fitted concentration of half-maximal effect.

Protein sequences, listed by entry. Tags and fused reporters are not part of them. Residues count along the entry.
UniProt Q96KQ7, 913-1193 limits assumed: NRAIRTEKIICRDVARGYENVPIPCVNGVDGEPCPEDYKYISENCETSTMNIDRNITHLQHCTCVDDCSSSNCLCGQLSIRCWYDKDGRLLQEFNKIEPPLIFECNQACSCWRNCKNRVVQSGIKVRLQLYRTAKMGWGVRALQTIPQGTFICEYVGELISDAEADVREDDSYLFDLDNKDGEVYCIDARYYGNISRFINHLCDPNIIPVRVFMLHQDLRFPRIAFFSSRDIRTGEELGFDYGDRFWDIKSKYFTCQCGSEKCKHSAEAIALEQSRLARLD

What follows are compounds tested against Histone-lysine N-methyltransferase EHMT2 (Homo sapiens) (UniProt Q96KQ7) (assay: qHTS Assay for Inhibitors of Histone Lysine Methyltransferase G9a). Conditions: G9a H3K9 monomethylation, AlphaScreen, 2 h.
For `COc1ccc2cc([S+]([O-])Cc3ncc(C)c(OC)c3C)nc2c1`, the Potency was active: 5.97 µM.
